Reference: PubChem BioAssay AID504761 (Drosophila RNAi Screening Center, 2011)
Purpose: 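Genome-wide fly cell screen for genes dengue virus requires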 (primary screen). Cell system: D.Mel-2 cells from Drosophila. Reagent: long dsRNA against Drosophila genes. Conditions: infection with dengue virus type 2; dose and infection time not stated. Detection: 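Cells stained for dengue envelope protein and imaged; percent of infected cells per well on duplicate plates, ranked by infection, with stained nuclei counted for cell number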. Scale: infection score: higher = more virus-infected cells; cell count: higher = more cells in the well. Call rule: 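Very low infection ranking in both replicate wells (chance probability at most 0.065), then a retest showing infection dropped 1.5-fold or more at p below 0.05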. Meaning of the calls: active = confirmed: knock-down lowers infection; inactive = not picked or not confirmed.
The screen tested about 22,000 reagents; this is a random part of those with a known target gene and a result. Over the whole deposit, 116 (0.52%) are marked active. 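Calls depend on retest data that are not deposited; infection was ranked per plate without normalising between plates; the unit of the infection score is not given.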 The raw values are shown without normalisation. Names joined by + are all predicted targets of the reagent. Reagent sequences are not shown. Not given: the amount of reagent, the time to read-out.

gene | DRSC id | infection score, replicate 1 | infection score, replicate 2 | cell count, replicate 1 | cell count, replicate 2 | Outcome
RpL18A (Ribosomal protein L18A) | DRSC07538 | 6.46 | 2.18 | 1114 | 733 | inactive
Gr23a (Gustatory receptor 23a) | DRSC27488 | 7.11 | 9.7 | 1970 | 6214 | inactive
GLaz (Glial Lazarillo) | DRSC07431 | 4.17 | 7.27 | 6769 | 6026 | inactive
Hsp60B (Heat shock protein 60B) | DRSC00542 | 2.86 | 3.59 | 6155 | 6093 | inactive
Ir92a (Ionotropic receptor 92a) | DRSC15111 | 3.83 | 6.2 | 6580 | 3047 | inactive
dnd (dead end) | DRSC16064 | 1.07 | 1.04 | 6564 | 6039 | inactive
CG15124 | DRSC06546 | 5.54 | 1.93 | 5973 | 6753 | inactive
CG3457 | DRSC18509 | 2.28 | 1.98 | 5912 | 6056 | inactive
CG3457 | DRSC26458 | 2.29 | 2.62 | 6641 | 6561 | inactive
CG12672 | DRSC19482 | 7.12 | 4.48 | 6054 | 6499 | inactive
CG12672 | DRSC24282 | 3.79 | 2.28 | 6124 | 6277 | inactive
sle (slender lobes) | DRSC14557 | 16 | 23.5 | 5110 | 5004 | inactive
CG14551 | DRSC14894 | 4.19 | 2.85 | 6299 | 6850 | inactive
AstC (Allatostatin C) | DRSC02403 | 18.7 | 2.37 | 4376 | 6300 | inactive
Taf6 (TBP-associated factor 6) | DRSC11299 | 9.53 | 29.2 | 4479 | 4423 | inactive
Sgf11 (SAGA associated factor 11kDa) | DRSC09987 | 6.89 | 8.09 | 7182 | 7153 | inactive
CG10657 | DRSC09768 | 5.03 | 5.08 | 6149 | 6104 | inactive
CG10657 | DRSC27483 | 16.4 | 22.9 | 5394 | 6874 | inactive
CG7065 | DRSC18420 | 1.17 | 4.94 | 5288 | 5262 | inactive
CG7065 | DRSC25280 | 3.35 | 5.24 | 5485 | 5079 | inactive
CG8188 | DRSC20090 | 2.41 | 4.7 | 6254 | 6844 | inactive
CG8188 | DRSC27721 | 15.1 | 7.98 | 5989 | 6833 | inactive
mud (mushroom body defect) | DRSC19019 | 1.63 | 1.28 | 6558 | 5712 | inactive
Crag | DRSC18454 | 3.02 | 2.27 | 6217 | 5724 | inactive
eve (even skipped) | DRSC24980 | 2.77 | 2.27 | 5663 | 5715 | inactive
CG10395 | DRSC04840 | 20.9 | 39.1 | 6140 | 4652 | inactive
CG10395 | DRSC26811 | 9.43 | 7.38 | 6901 | 6547 | inactive
CG6885 | DRSC10740 | 3.33 | 0.96 | 6492 | 6754 | inactive
CG16989 | DRSC18535 | 10.2 | 10.2 | 6082 | 5927 | inactive
CG16989 | DRSC29403 | – | 1.93 | 340 | 571 | inactive
Atu (Another transcription unit) | DRSC12123 | 1.41 | 4.54 | 6154 | 5658 | inactive
CG14414 | DRSC19599 | 34 | – | 4016 | 451 | inactive
lft (lowfat) | DRSC02236 | 2.89 | 4.75 | 6162 | 6236 | inactive
CG9582 | DRSC03267 | 8.32 | 0.32 | 5530 | 6800 | inactive
lncRNA:CR32660 (long non-coding RNA:CR32660) | DRSC22965 | 1.14 | 4.51 | 6585 | 931 | inactive
lncRNA:CR32660 (long non-coding RNA:CR32660) | DRSC25869 | 7.1 | 1.43 | 6299 | 6282 | inactive
CG8745 | DRSC11033 | 11.9 | 8.47 | 7110 | 7319 | inactive
CG8745 | DRSC11034 | 1.74 | 2.49 | 6568 | 6637 | inactive
CG8745 | DRSC22741 | 13.8 | 21.7 | 7010 | 6297 | inactive
Ssl (Suppressor of Stellate-like) | DRSC04657 | 4.82 | 2.78 | 6571 | 6799 | inactive
Ssl (Suppressor of Stellate-like) | DRSC26276 | 13.5 | 8.44 | 3757 | 5637 | inactive
fbl + CG33969 | DRSC27922 | 12.2 | 16.6 | 6682 | 6335 | inactive
Yp2 (Yolk protein 2) | DRSC18732 | 3.72 | 4.16 | 6425 | 6906 | inactive
Yp2 (Yolk protein 2) | DRSC29289 | 14.3 | 14.3 | 6504 | 1792 | inactive
CG2765 | DRSC04315 | 7.52 | 37.1 | 6743 | 5567 | inactive
tomb + Cap-D3 | DRSC27851 | 11.8 | 32 | 5532 | 4925 | inactive
Mpi (Mannose phosphate isomerase) | DRSC16417 | 1.12 | 2.85 | 6538 | 6675 | inactive
LysS (Lysozyme S) | DRSC08677 | 4.27 | 0.62 | 5755 | 6331 | inactive
LysS (Lysozyme S) | DRSC27168 | 29.9 | – | 5959 | – | inactive
eIF3b (eukaryotic translation initiation factor 3 subunit b) | DRSC06900 | 11.7 | 18.8 | 2300 | 2189 | inactive
l(2)k05911 (lethal (2) k05911) | DRSC02523 | 9.25 | 5.94 | 5981 | 6330 | inactive
CG18596 | DRSC15355 | 12.8 | 2.22 | 6772 | 6580 | inactive
CG14556 | DRSC14899 | 1.55 | 6.63 | 7345 | 4753 | inactive
CG14306 (retired record) | DRSC14785 | 7.06 | 4.8 | 6314 | 6060 | inactive
MAPk-Ak2 (MAP kinase activated protein-kinase-2) | DRSC18678 | 4.43 | 6.55 | 6527 | 6982 | inactive
MAPk-Ak2 (MAP kinase activated protein-kinase-2) | DRSC29642 | 25.7 | 19.7 | 6092 | 4502 | inactive
CG15818 | DRSC02505 | 5.77 | 5.4 | 6581 | 6246 | inactive
CG15818 | DRSC28515 | 9.43 | 3.74 | 3427 | 5776 | inactive

8 entries from above, limited to “infection score, replicate 1”.
CG12672 [DRSC24282]: 3.79
sle (slender lobes) [DRSC14557]: 16
CG14551 [DRSC14894]: 4.19
AstC (Allatostatin C) [DRSC02403]: 18.7
Taf6 (TBP-associated factor 6) [DRSC11299]: 9.53
Sgf11 (SAGA associated factor 11kDa) [DRSC09987]: 6.89
CG10657 [DRSC09768]: 5.03
CG10657 [DRSC27483]: 16.4
